Data taken from publication PMC9005727, “ComFC mediates transport and handling of single-stranded DNA during natural transformation” (Nature Communications, 2022).
Construct, isoform or probe ends are uncertain for at least one entry. A negative result means that nothing was seen under these conditions.

Molecular target: ComFC WT (His6-ComFC) (Helicobacter pylori 26695) (UniProt O26008)
Test: EMSA
Settings: EMSA: 10 mM Tris-HCl pH 7.5, 50 mM KCl, 1 mM DTT, 0.1 ug/ul BSA, 4 °C, 30 min; native 6% TBE-PAGE; recombinant protein; residues 1-191; label: 5'-Cy5 on XV2

TGGGTGAACCTGCAGGTGGGCAAAGATGTCCTAGCAATGTAATCGTCAAGCTTTATGCCGTT (double strand) [XV2/cXV2 62-bp dsDNA]
binding result: no binding
